From ChEMBL document CHEMBL3988442, “University of Dundee, Small-Polar-MMV Screening Library” (2021).

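Growth of Mycobacterium tuberculosis over 4 days (cholesterol / DPPC medium with tyloxapol); the read-out is not stated. Compounds at 500 µM. Higher reads as more growth inhibition (inferred: compounds with an IC50 in retests scored well above the rest). About 18,000 compounds were tested under these conditions; 5% (about 900) showed 50% or more at least once.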

Results are given as percent effect. The controls that fix the scale are not given in the record; negative values are as filed. The entries come from a sample that favours strong results.

| structure | Percent Effect |
|---|---|
| `c1ccc(OCC2CCNC2)cc1` (stereo not given) | 16.71 |
| `Cc1ccc(S(=O)(=O)NCCS(C)(=O)=O)cc1C` | -3.766 |
| `Cc1nocc1C(=O)N1C[C@@H](CO)[C@H](N(C)C)C1` | 5.483 |
| `CNCC(=O)Nc1cc(F)c(OC)cc1OC` | 3.113 |
| `CCOc1ccc2c(c1)cc(C(=O)NCCOC)n2C` | -6.251 |
| `O=C(c1cc(Br)c[nH]1)N1CCCCC1` | 13.75 |
| `COCCCOC1CN(C(=O)c2cc(F)ccc2C)C1` | 23.23 |
| `CN(C)S(=O)(=O)N(CCO)Cc1ccc(Cl)c(Cl)c1` | 68.2 |
| `CC(NS(=O)(=O)N(C)C1CCCCC1)c1ccccn1` (stereo not given) | 40.36 |
| `COc1cc(Br)ccc1CCCNC(=O)c1c[nH]nn1` | 89.35 |
| `CCN1CCCCC1C(=O)NCCc1ccco1` (stereo not given) | 4.965 |
| `NC(=O)Nc1cccc(C(=O)NCC2CCCCO2)c1` (stereo not given) | 9.301 |
| `CC(NC(=O)c1ccccc1Cl)C(=O)NC1CC1` (stereo not given) | -6.947 |
| `COCc1noc(C2CCN(CC(F)(F)F)CC2)n1` | 41.09 |
| `CCN(CCn1cccn1)C(=O)c1cc(C(C)C)no1` | 53.35 |
| `CC(C)(C)CNC(=O)CCN1C(=O)CCC1=O` | 5.671 |
| `O=C(Nc1nncs1)c1ccccn1` | 46.03 |
| `NC1CCCN(c2ccccn2)C1` (stereo not given) | 10.41 |
| `Cc1ccnc(NC(=O)CC(C)C)c1` | -4.29 |
| `O=C(NCCNC(=O)c1ccccc1)C1=CCC1` | 8.122 |
| `CCS(=O)(=O)N(C)CCCNc1ccc(C)c(C#N)n1` | 64.2 |
| `COc1ncc(C)cc1NC(=O)CCc1cccnc1` | -8.329 |
| `CCCC1C(=O)NCCN1C(=O)c1ccc(Br)c(O)c1` (stereo not given) | -4.697 |
| `N[C@H]1CN(C(=O)Cn2cc(Cl)cn2)C[C@@H]1C1CC1` | 13.53 |
| `N#Cc1ccc(CCC(=O)NCc2cccnc2)cc1` | -7.419 |
| `CCC(=O)Nc1nc2c(s1)COCC2` | 6.8 |
| `COCc1nc2n(n1)CCCC2NC1CCSCC1` (stereo not given) | 27.99 |
| `O=C(c1ccc(Cl)o1)N1CCN(Cc2ccco2)CC1` | 90.44 |
| `Cc1occc1C(=O)NCC(CO)Cc1cccs1` (stereo not given) | 55.31 |
| `CCCc1nc(C(=O)NCCc2cccnc2)cs1` | 77.6 |
| `NCC(=O)N1CCC(Cc2ccccc2)CC1` | 3.942 |
| `COc1cc(-c2cnn(CCC(N)=O)c2)c(Cl)cn1` | -10.76 |
| `CSCc1ccc(C(=O)N(C)Cc2cnccn2)o1` | -2.302 |
| `OC(CN1CCOC2(CCCC2)C1)c1ccccc1` (stereo not given) | 52.75 |
| `COC(=O)c1cccc(CNCCC(=O)N(C)C)c1` | 6.394 |
| `CCN1CCc2ccc(NS(=O)(=O)CC)cc21` | -9.442 |
| `Cc1cccc(NC(=O)C2CCNCC2)n1` | -4.093 |
| `NC(=O)NC(=O)CCS(=O)(=O)c1cc(F)ccc1F` | 112.1 |
| `CN(CC(C)(CO)CO)c1ncc(Cl)cc1Cl` | 70.57 |
| `Cc1ccc(CN)cc1S(C)(=O)=O` | -13.4 |
| `COCc1nn(CCC2CCCC2)c(=O)o1` | 85.2 |
| `Cn1cnc(S(=O)(=O)NCC(N)c2ccccc2)c1Cl` (stereo not given) | -1.891 |
| `CCOC(=O)c1cccnc1NCc1cnn(C)c1C` | 64.56 |
| `Cc1nc(-n2cccc2)sc1CO` | 36.54 |
| `O=C1N(CC2CCC2)CCCC1(O)CN1CCOCC1` (stereo not given) | -10.16 |
| `CCC(C)Cn1nc(COC)oc1=O` (stereo not given) | -3.773 |
| `CS(=O)(=O)c1ccccc1CN` | 8.01 |
| `CN(C)C1CCN(c2ncnc3c2cnn3C)CC1` | -2.244 |
| `NC1CC(=O)N(Cc2ccccc2C(F)(F)F)C1` (stereo not given) | 8.657 |
| `CC(CO)CNC(=O)CCNC(=O)NC1CCCCC1` (stereo not given) | 14.8 |
| `NCCCc1nc2ccccc2o1` | 66.66 |
| `O=S(=O)(C1CC1)N1CCC(Nc2ccccn2)CC1` | -9.664 |
| `NC1COC2(CCCCC2)C1` (stereo not given) | 5.514 |
| `O=C(Nc1cccc(Cl)c1)C1CCCN1` (stereo not given) | 51.77 |
| `CCc1noc(C)c1C(=O)Nc1cccnc1` | -5.2 |
| `CNC(=O)NC(=O)CCN1CCCC(C)C1` (stereo not given) | 17.68 |
| `Cc1ccc(C(=O)CCN2CCOCC2C(N)=O)cc1` (stereo not given) | 102.9 |
| `Cc1c[nH]c(C(C)NC(=O)c2ccc(CO)cc2)n1` (stereo not given) | 4.567 |
| `N#Cc1sccc1N1CCNCC1` | 2.916 |
| `CCNC1CCS(=O)(=O)C1` (stereo not given) | -8.443 |
| `O=S(=O)(CCN1CCN(CCO)CC1)C(F)(F)F` | 32.8 |
| `CN(CCN1CCOCC1)C1CCNCC1` | -2.479 |
| `NC(=O)CN(C(=O)c1cccc(Cl)c1)c1ccccc1` | 9.806 |
| `CCOc1c(Cl)cc(CN)cc1OC` | 4.327 |
| `O=S(=O)(NCc1ccncc1)c1cccc2nonc12` | -2.436 |
| `CC[C@H](N)C(=O)N1CCCc2cc(OC)ccc2C1` | 11 |
| `O=C(CN1CCCC1=O)NCCc1cccnc1` | -22.4 |
| `Cc1cccc(CN(C)CC(=O)N(C)C)c1` | 3.805 |
| `COc1ncccc1CNS(=O)(=O)C1CC1` | -24.24 |
| `CNCc1cnn(-c2ccccc2)c1` | -10.8 |
| `CSCCC(NC(N)=O)C(=O)Nc1cccc(F)c1` (stereo not given) | -4.457 |
| `CC1CC(C)(C)NC1=O` (stereo not given) | -2.183 |
| `NCCc1ccc(Br)o1` | -6.908 |
| `Cc1cnc(C(=O)c2ncc(C)[nH]2)[nH]1` | 37.67 |
| `Cc1n[nH]c(C)c1CN(C)Cc1ccncc1` | -9.993 |
| `c1cn(C2CNC2)nn1` | 3.733 |
| `CCC(C)(CCO)NC(=O)c1ccc[nH]1` (stereo not given) | 5.16 |
| `N#CCc1c[nH]c2ccc(C(N)=O)cc12` | -11.63 |
| `CCS(=O)(=O)CCCN` | -5.267 |
| `CCC(C)C(=O)NCCNc1ccc(C(F)(F)F)cn1` (stereo not given) | 77.04 |
| `Cc1cc(C)c(CN2CCOC(CN)C2)cc1C` (stereo not given) | 77.75 |
| `CCCN(CCO)Cc1nc(CC(C)C)no1` | 12.93 |
| `CS(=O)(=O)NC1CCCN(c2ccncc2Cl)C1` (stereo not given) | -7.195 |
| `NC(=O)CC1CCN(Cc2ccccc2F)CC1` | -3.774 |
| `O=C(NCc1ccccn1)n1ccnc1` | -87.56 |
| `COCC(C)C(=O)Nc1ccc2c(c1)CCCN2` (stereo not given) | -20.25 |
| `COc1ccc(NC(=O)COc2ccccc2F)cn1` | 70.49 |
| `CC(C)C(CN)N1CCCC1` (stereo not given) | -11.42 |
| `COc1ccc(C(=O)NCCN(C)C)cc1F` | 6.285 |
| `CN(C)C(CNS(=O)(=O)c1c[nH]cn1)C1CCCCC1` (stereo not given) | -11.59 |
| `CNc1ccnc(N2CCCC3(CN(C)C(=O)O3)C2)n1` (stereo not given) | -4.21 |

The last 6 entries again:

COCC(C)C(=O)Nc1ccc2c(c1)CCCN2 (stereo not given) gave -20.25%.
COc1ccc(NC(=O)COc2ccccc2F)cn1 gave 70.49%.
CC(C)C(CN)N1CCCC1 (stereo not given) gave -11.42%.
COc1ccc(C(=O)NCCN(C)C)cc1F gave 6.285%.
CN(C)C(CNS(=O)(=O)c1c[nH]cn1)C1CCCCC1 (stereo not given) gave -11.59%.
CNc1ccnc(N2CCCC3(CN(C)C(=O)O3)C2)n1 (stereo not given) gave -4.21%.